Compound potency records, mixed from different reports. Data source: NIAID ChemDB in PubChem.

Common to all: whole-cell or culture tests; agent: Candida albicans

Lines come from different laboratories, so protocols vary. An empty or dashed field is not shown. A number after MIC or MFC names an inhibition level or a share of isolates. ECn is the concentration giving n% inhibition of infection, replication or growth. Inhibition is in % at the dose shown (toxicity tests: loss of growth or viability).

SMILES	read by	strain	setting	read-out	dose	value
Cc1ccc(-n2cc(C(C)(C)O)nn2)cc1C	broth dilution	URM 4126	-	inhibition	2048 µg/mL	0%
Clc1ccc(COc2ccc(C(c3ccc4ccccc4c3)n3ccnc3)cc2)cc1.O=[N+]([O-])O	-	16 strains	-	Mean MIC	-	≥256 µg/mL
CC[C@@H]([C@H](C)O)n1ncn(-c2ccc(N3CCN(c4ccc(OC[C@@H]5CO[C@@](Cn6cncn6)(c6ccc(F)cc6F)C5)cc4)CC3)cc2)c1=O	broth dilution	15 isolates	pH 4	EC90	-	0.03 µg/mL
Fc1ccc(COc2ccc(C(c3ccc(-c4ccccc4)cc3)n3ccnc3)cc2)c(F)c1.O=[N+]([O-])O	-	16 strains	-	Mean MIC	-	≥256 µg/mL
CC(C)(O)c1cn(-c2ccc([N+](=O)[O-])cc2)nn1	broth dilution	URM 4386	-	inhibition	2048 µg/mL	0%
Cc1ccc(-c2c3c(N)c4c(nc3nc3c2c(C)nn3-c2ccccc2)CCCC4)cc1	broth dilution / absorbance	CCC 125	-	MIC80	-	31.2 µg/mL
C[C@@H](N1CCN(Cc2cn(Cc3ccc(F)cc3F)c3c(C#N)cccc23)CC1)[C@](O)(Cn1cncn1)c1ccc(F)cc1F	resazurin	ATCC 64548	-	MIC80	-	1 µg/mL
OC(CN1CCN(c2ccc(OCc3ccncc3)cc2)CC1)(Cn1cncn1)c1ccc(F)cc1F	-	304046	-	MIC80	-	≤0.063 µg/mL
CC(C)(O)c1cn(-c2cccc3ccccc23)nn1	broth dilution	URM 4609	-	inhibition	2048 µg/mL	0%
Fc1ccccc1COc1ccc(C(c2cccc3ccccc23)n2ccnc2)cc1.O=[N+]([O-])O	-	16 strains	-	Mean MIC	-	≥256 µg/mL
Clc1ccc(COC(Cn2ccnc2)c2ccc(Cl)cc2Cl)c(Cl)c1	broth dilution	10 isolates	pH 5	EC90	-	1 µg/mL
C=CCSS(=O)CC=C	broth dilution	Clinical Isolate 3071	-	MIC90	-	6.25 µg/mL
Oc1ccc2c(c1)CCc1ccc(O)c(c1)Oc1ccc(cc1)CCc1cccc(O)c1O2	broth dilution	SC5314	-	MIC80	-	16 µg/mL
NC(=NC1CCCC1)c1ccc(-c2ccc(-c3ccc(C(N)=NC4CCCC4)cc3)o2)cc1	-	21 strains	-	Geometric mean MFC	-	35.35 µg/mL
C=CCc1ccc(OC)c(OC)c1	turbidity	2780	-	MIC90	-	345 µg/mL
CC(C)(O)c1cn(-c2ccc3ccccc3c2)nn1	broth dilution	URM 4990	-	inhibition	2048 µg/mL	0%
C[C@H]1[C@H](O)[C@@H](C)/C=C/C=C/C=C/C=C/C=C/C=C/C=C/[C@H](O[C@@H]2O[C@H](C)[C@@H](O)[C@H](N)[C@@H]2O)C[C@@H]2O[C@](O)(C[C@@H](O)C[C@@H](O)CC[C@H](O)[C@@H](O)C[C@@H](O)CC(=O)O[C@H]1C)C[C@H](O)[C@H]2C(=O)O	-	Fluconazole-resistant 4 isolates pooled	-	MFC90	-	2 µg/mL
Fc1ccc(COc2ccc(C(c3ccc4ccccc4c3)n3ccnc3)cc2)c(F)c1.O=[N+]([O-])O	-	17 strains	-	Mean MIC	-	≥256 µg/mL
Cc1ccc(-c2c3c(N)c4c(nc3nc3c2c(C)nn3-c2ccccc2)CCC4)cc1	broth dilution / absorbance	CCC 125	-	MIC50	-	62.5 µg/mL
C[C@@H](N1CCN(Cc2cn(Cc3ccc(F)cc3)c3c(F)cccc23)CC1)[C@](O)(Cn1cncn1)c1ccc(F)cc1F	resazurin	ATCC MYA-1003	-	MIC80	-	16 µg/mL
Cc1ccc(-c2c3c(N)c4c(nc3nc3c2c(C)nn3-c2ccccc2)CCCCC4)cc1	broth dilution / absorbance	CCC 127	-	MIC50	-	31.2 µg/mL
C=CCc1ccc(Cn2cc(CN3CCN([C@H](C)[C@](O)(Cn4cncn4)c4ccc(F)cc4F)CC3)c3ccccc32)cc1	resazurin	ATCC 64548	-	MIC80	-	0.125 µg/mL
Clc1ccc(COc2ccc(C(c3ccc4ccccc4c3)n3ccnc3)cc2)c(Cl)c1	-	17 strains	-	Mean MIC	-	≥256 µg/mL
CCC(C)CC(C)CCCCCCCCC(=O)N[C@H]1C[C@@H](O)[C@H](NCCN)NC(=O)[C@@H]2[C@@H](O)CCN2C(=O)[C@H]([C@H](O)CCN)NC(=O)[C@H]([C@H](O)[C@@H](O)c2ccc(O)cc2)NC(=O)[C@@H]2C[C@@H](O)CN2C(=O)[C@H]([C@@H](C)O)NC1=O	broth dilution	15 isolates	pH 4	EC90	-	0.25 µg/mL
C[C@H]1[C@H](O)[C@@H](C)/C=C/C=C/C=C/C=C/C=C/C=C/C=C/[C@H](O[C@@H]2O[C@H](C)[C@@H](O)[C@H](N)[C@@H]2O)C[C@@H]2O[C@](O)(C[C@@H](O)C[C@@H](O)CC[C@H](O)[C@@H](O)C[C@@H](O)CC(=O)O[C@H]1C)C[C@H](O)[C@H]2C(=O)O	broth dilution / absorbance	CCC 128	-	MIC100	-	1.56 µg/mL
C=CCn1cc(CN2CCN([C@H](C)[C@](O)(Cn3cncn3)c3ccc(F)cc3F)CC2)c2ccc(Cl)cc21	resazurin	ATCC MYA-1003	-	MIC80	-	8 µg/mL
c1ccc(Cc2ccc(C(c3nccc4ccccc34)n3ccnc3)cc2)cc1	-	44 strains	-	Mean MIC	-	14.8 µg/mL
CCC(C)n1ncn(-c2ccc(N3CCN(c4ccc(OC[C@H]5CO[C@](Cn6cncn6)(c6ccc(Cl)cc6Cl)O5)cc4)CC3)cc2)c1=O	broth dilution	10 isolates	pH 4	EC90	-	>16 µg/mL

A second listing of 4 rows from above:

SMILES	read by	strain	setting	read-out	dose	value
Cc1ccc(-c2c3c(N)c4c(nc3nc3c2c(C)nn3-c2ccccc2)CCC4)cc1	broth dilution / absorbance	CCC 125	-	MIC50	-	62.5 µg/mL
C[C@@H](N1CCN(Cc2cn(Cc3ccc(F)cc3)c3c(F)cccc23)CC1)[C@](O)(Cn1cncn1)c1ccc(F)cc1F	resazurin	ATCC MYA-1003	-	MIC80	-	16 µg/mL
C=CCc1ccc(Cn2cc(CN3CCN([C@H](C)[C@](O)(Cn4cncn4)c4ccc(F)cc4F)CC3)c3ccccc32)cc1	resazurin	ATCC 64548	-	MIC80	-	0.125 µg/mL
C[C@H]1[C@H](O)[C@@H](C)/C=C/C=C/C=C/C=C/C=C/C=C/C=C/[C@H](O[C@@H]2O[C@H](C)[C@@H](O)[C@H](N)[C@@H]2O)C[C@@H]2O[C@](O)(C[C@@H](O)C[C@@H](O)CC[C@H](O)[C@@H](O)C[C@@H](O)CC(=O)O[C@H]1C)C[C@H](O)[C@H]2C(=O)O	-	Fluconazole-resistant 4 isolates pooled	-	MFC90	-	2 µg/mL